{"source": "patent US5552382A", "about": "“Gramicidin as a spermicide against sexual transmission of HIV” (priority 1994, dated 1996)", "tested_on": "IIIB strain of HIV", "format": "cell-based", "details": "MT-4 cells, 3 days, p24 ELISA, approximate log10 concentration", "experimental": "The following test procedure was employed.\nIn a classical virology assay aimed at testing the antiviral activity of a drug, the virus is added in the presence of a drug to target cells for the determined period of inoculation time, e.g., 1 hour, and then nonadsorbed virus is washed away and inoculated cells are exposed again to a fresh drug. After several days, a period corresponding to the replication cycle of the virus, the dose-effect of the drug is tested by measuring the quantity of newly-synthesized virus in the culture supernates of inoculated cells. But this strategy is not truly representative of the in vivo situation. It is clear that in a real-life situation the virus is not \"flushed\" from a human body prior to drug administration. […] In the present assay, virus, drug and cells were left without washing in the culture until tested for virus production 3 days later. This period of time presents one full cycle of HIV replication, Dimitrov et al., J. Virol. 67:2182-90, 1993. […]\np24 ELISA. Reduction of productive infection was evaluated by a commercial ELISA kit for viral core gag p24 product according to the manufacturer's instructions (Coulter, Hialeah, Fla.) as follows. […] The amount of captured p24 was measured by comparing the optical density (450 nm) of peroxidase substrate with supplied standards containing known amounts of p24. […]", "data": [{"substance": "gramicidin", "values": [{"measurement": "IC50 (50% inhibition of HIV infection)", "value": 10, "unit": "pg"}]}]}
